Results of unrelated studies side by side (data: NIAID ChemDB).

Common to all: enzyme or target tests; organism: HIV-1; protein: Reverse transcriptase

Two numbers with a dash give a range or band.

structure | strain | changes | read by | measure | value
C[C@@H](CNC(=S)Nc1nccs1)c1ccccc1 | - | - | - | IC50 | 10.02 µM
C/C=C/CSc1cc(NC(=S)c2ccsc2C)ccc1Cl | - | RT-Y181I | - | IC50 | 35.5 µM
Nc1ncnc2c1ncn2OCCOCP(=O)(O)OP(=O)(O)OP(=O)(O)O | - | - | - | IC50 | 1.5 µM
CCCc1cccnc1N(C)C1CCN(C(=O)c2cc3cc(NS(C)(=O)=O)ccc3[nH]2)CC1 | IIIB | RT-Y181C | nucleotide incorporation | IC50 | >1 µM
COc1ccc2c(c1)N(C(=O)OC(C)C)[C@@H](CSC)C(=S)N2 | IIIB | RT-P225H | RT activity | Ki | 0.028 µM
Cc1ncc(COP(=O)(O)O)c(C=O)c1O | - | - | - | IC50 | 192 µM
N#Cc1cc(Cl)cc(Oc2c(Br)ccc(CN3CC(=O)NC3=O)c2F)c1 | K103N/Y181C | NNRTI-resistant (RT K103N/Y181C) | scintillation proximity / radiometric | IC50 | 0.011 µM
O=c1c2cccn2c2ccccc2n1CCNC(=S)Nc1ccc(Cl)cn1 | - | - | nucleotide incorporation | Ki | 0.1 µM
Cc1cccc2c1nc(-c1c(F)cccc1F)n2Cc1c(F)c(F)c(F)c(F)c1F | - | - | - | IC50 | <10 µM
CCN1c2ncc(CCc3ccncc3)cc2C(=O)N(C)c2ccc(Cl)nc21 | WT | - | nucleotide incorporation / radiometric | IC50 | <1 µM
N#Cc1cc(Cl)cc(Oc2c(Br)ccc(Cn3[nH]c(=O)[nH]c3=O)c2F)c1 | - | Wild type | scintillation proximity / radiometric | IC50 | 0.007 µM
Cc1cccc2sc(NC(=S)N[C@H](C)c3cccc4ccccc34)nc12 | - | - | nucleotide incorporation | IC50 | 10.2 µM
CCN1c2ncc(COc3cc[n+]([O-])c(C(F)(F)F)c3)cc2C(=O)N(C)c2ccc(Cl)nc21 | WT | - | nucleotide incorporation / radiometric | IC50 | <1 µM
O=c1c2cccn2c2cc(Cl)c(Cl)cc2n1CCNC(=S)Nc1ccc(Br)cn1 | - | RT-V106A | nucleotide incorporation | Ki | 0.02 µM
CC(=O)c1ccc(C)cc1NC(C(N)=O)c1c(Cl)cccc1Cl | IIIB | RT-P225H | RT activity | IC50 | 1.9 µM
CCN1c2ncc(CCOc3ccc(C(=O)O)c4ccccc34)cc2C(=O)N(C)c2cccnc21 | - | RT-Y188L | nucleotide incorporation / radiometric | IC50 | >1 µM
CC1(C)C2CCC(COCCNC(=S)Nc3ccc(Br)cn3)C1C2 | - | - | nucleotide incorporation / scintillation proximity / radiometric | IC50 | >100 µM
C[C@H](NC(=S)Nc1ccc(Br)cn1)c1cccc2ccccc12 | - | - | nucleotide incorporation | IC50 | >100 µM
Cc1cccc2nc(-c3c(F)cccc3F)n(Cc3c(F)cccc3F)c12 | - | - | - | IC50 | >10 µM
CCN1c2ncc(C=O)cc2C(=O)N(C)c2ccc(F)nc21 | - | RT-Y181C | nucleotide incorporation / radiometric | IC50 | >1 µM
CCN1c2ncc(CCOc3ccc(CC(N)=O)c4ccccc34)cc2C(=O)N(C)c2cccnc21 | WT | - | nucleotide incorporation / radiometric | IC50 | <0.1 µM
CCN1c2ncc(O)cc2C(=O)N(C)c2ccc(Cl)nc21 | WT | - | nucleotide incorporation / radiometric | IC50 | >1 µM
C[C@H](NC(=S)Nc1nc2ccccc2s1)c1cccc2ccccc12 | - | - | - | IC50 | >100 µM
Cc1cn([C@H]2C[C@H](F)[C@@H](COP(=O)(O)OP(=O)(O)OP(=O)(O)O)O2)c(=O)[nH]c1=O | LAV | - | - | Ki | 0.018 µM
Nc1ccn([C@@H]2CS[C@H](COP(=O)(O)OP(=O)(O)OP(=O)(O)O)O2)c(=O)n1 | - | RT-M184V | - | Ki | 61 µM
Cc1occc1C(=S)Nc1ccc(Cl)c(/C=N/OC(C)(C)C)c1 | - | RT-E138K | - | IC50 | 8.5 µM
CCc1c(CC23CC4CC(CC(C4)C2)C3)nc(SCC(=O)c2ccc(OC)cc2)[nH]c1=O | - | - | RT activity / ELISA | IC50 | 3.37 µM
O=[N+]([O-])c1ccc2c(c1)nc(-c1c(F)cccc1F)n2Cc1c(F)cccc1F | - | - | - | IC50 | >10 µM
C[C@H](NC(=S)Nc1nc2ccccc2s1)c1cccc2ccccc12 | - | - | nucleotide incorporation | IC50 | >100 µM
CCOCn1c(Cc2ccccc2)c(C(C)C)c(=O)[nH]c1=O | IIIB | - | RT activity | Ki | 0.08 µM
Fc1cccc(F)c1COCc1nc2ccccc2n1Cc1c(F)cccc1F | - | - | - | IC50 | >10 µM
O=C1c2cccnc2C(=O)N1CCNC(=S)Nc1ccc(Br)cn1 | - | - | nucleotide incorporation | Ki | 0.019 µM
CCN1c2ncc(CCOc3ccc(CC(=O)NN)c4ccccc34)cc2C(=O)N(C)c2ccc(NN)nc21 | WT | - | nucleotide incorporation / radiometric | IC50 | <0.1 µM
N#Cc1cc(Cl)cc(Oc2c(Br)ccc(Cn3cc(Cl)c(=O)[nH]c3=O)c2F)c1 | - | Wild type | scintillation proximity / radiometric | IC50 | 0.004 µM
Cc1csc(NC(=S)N[C@H](C)c2cccc3ccccc23)n1 | - | - | - | IC50 | 1.17 µM
Cc1cn([C@@H]2O[C@H](CO[Si](C)(C)C(C)(C)C)C3(OS(=O)(=O)C=C3N)[C@H]2O[Si](C)(C)C(C)(C)C)c(=O)n(C)c1=O | IIIB | RT-P225H | RT activity | IC50 | 6.6 µM
C[C@H](CNC(=S)Nc1ccc(Br)cn1)C1CCCCC1 | - | - | - | IC50 | >100 µM
Cc1csc(NC(=S)N[C@@H](C)c2cccc3ccccc23)n1 | - | - | nucleotide incorporation | IC50 | >100 µM
CCN1c2ncc(CCOc3ccc(/C=C(\C)C(=O)O)c4ccccc34)cc2C(=O)Nc2c(C)cc(F)nc21 | WT | - | nucleotide incorporation / radiometric | IC50 | <0.1 µM
CC(C)=CCN1Cc2cccc3[nH]c(=S)n(c23)C[C@@H]1C | - | - | nucleotide incorporation | IC50 | 8 µM
CN1C(=O)NC(=O)C1Cc1ccc(Br)c(Oc2cc(Cl)cc(C#N)c2)c1F | - | Wild type | scintillation proximity / radiometric | IC50 | 0.006 µM
Cc1cccc2sc(NC(=S)N[C@H](C)c3ccccc3)nc12 | - | - | - | IC50 | 8.7 µM
C[C@@H](NC(=S)Nc1ccc(Cl)cn1)c1cccc2ccccc12 | - | - | nucleotide incorporation | IC50 | 0.58 µM
N#Cc1cc(Cl)cc(Oc2c(Br)ccc(Cn3c(=O)[nH]c4ccccc43)c2F)c1 | K103N/Y181C | NNRTI-resistant (RT K103N/Y181C) | scintillation proximity / radiometric | IC50 | 0.008 µM
O=c1c(O)c[nH]c2c(O)ccc(O)c12 | - | - | RT activity / nucleotide incorporation / radiometric | IC50 | 2.38 µM
O=c1cnc2ccccc2n1CCNC(=S)Nc1ccc(Br)cn1 | - | RT-L100I | nucleotide incorporation | Ki | 2 µM
Cc1cccc2c1nc(C=O)n2Cc1c(F)cccc1F | - | - | - | IC50 | >10 µM
C=C(CC(=O)O)c1ccc(OCCc2cnc3c(c2)C(=O)N(C)c2cccnc2N3CC)c2ccccc12 | - | RT-V106A | nucleotide incorporation / radiometric | IC50 | >1 µM
CC(C)=CCN1Cc2cccc3[nH]c(=S)n(c23)C[C@@H]1C | NL4-3 | - | nucleotide incorporation | IC50 | 2.22 µM
CCN1c2ncc(CCc3ccccc3)cc2C(=O)Nc2c(C)ccnc21 | WT | - | nucleotide incorporation / radiometric | IC50 | <1 µM
Fc1cccc(F)c1Cn1c(-c2c(F)cccc2F)nc2cc(Br)ccc21 | - | - | - | IC50 | >10 µM
CCN1c2ncc(CCOc3ccc(CCC(=O)NN)c4ccccc34)cc2C(=O)N(C)c2cccnc21 | - | RT-K103N Y181C | nucleotide incorporation / radiometric | IC50 | 0.1–1 µM
Cc1cccc(NC(=S)N[C@H](C)c2cccc3ccccc23)n1 | - | - | - | IC50 | 1.03 µM
Cc1ccc(NC(=S)N[C@H](C)c2cccc3ccccc23)nc1 | - | - | nucleotide incorporation | IC50 | 0.45 µM
Cc1cn([C@H]2C=C[C@@H](COP(=O)(O)OP(=O)(O)OP(=O)(O)O)O2)c(=O)[nH]c1=O | - | RT-H208Y | - | Ki | 0.004 µM
CCN1c2ncc(COc3cc[n+]([O-])cc3)cc2C(=O)N(C)c2cccnc21 | - | RT-Y181C | nucleotide incorporation / radiometric | IC50 | >1 µM
Cc1cc(C)nc(NC(=S)N[C@H](C)c2cccc3ccccc23)c1 | - | - | nucleotide incorporation | IC50 | 40 µM

The last 7 rows once more:

{"structure": "Fc1cccc(F)c1Cn1c(-c2c(F)cccc2F)nc2cc(Br)ccc21", "measure": "IC50", "value": ">10 µM"}
{"structure": "CCN1c2ncc(CCOc3ccc(CCC(=O)NN)c4ccccc34)cc2C(=O)N(C)c2cccnc21", "changes": "RT-K103N Y181C", "read by": "nucleotide incorporation / radiometric", "measure": "IC50", "value": "0.1–1 µM"}
{"structure": "Cc1cccc(NC(=S)N[C@H](C)c2cccc3ccccc23)n1", "measure": "IC50", "value": "1.03 µM"}
{"structure": "Cc1ccc(NC(=S)N[C@H](C)c2cccc3ccccc23)nc1", "read by": "nucleotide incorporation", "measure": "IC50", "value": "0.45 µM"}
{"structure": "Cc1cn([C@H]2C=C[C@@H](COP(=O)(O)OP(=O)(O)OP(=O)(O)O)O2)c(=O)[nH]c1=O", "changes": "RT-H208Y", "measure": "Ki", "value": "0.004 µM"}
{"structure": "CCN1c2ncc(COc3cc[n+]([O-])cc3)cc2C(=O)N(C)c2cccnc21", "changes": "RT-Y181C", "read by": "nucleotide incorporation / radiometric", "measure": "IC50", "value": ">1 µM"}
{"structure": "Cc1cc(C)nc(NC(=S)N[C@H](C)c2cccc3ccccc23)c1", "read by": "nucleotide incorporation", "measure": "IC50", "value": "40 µM"}

Rows are shuffled and stem from different studies. Blank or dashed fields: not listed here. ICn is the concentration giving n% inhibition.